Pooled drug test results. Numbers come from NIAID ChemDB, via PubChem.

All rows: whole-cell or culture tests; organism: HIV-1

Blank or dashed fields: not listed here.

| smiles | method | cell line | strain | endpoint | changes | result |
|---|---|---|---|---|---|---|
| COC1(C)CCN(c2c(-c3ccc(OCC(C)C)cn3)cnc(C)c2[C@H](OC(C)(C)C)C(=O)O)CC1 | luminescence | MT-2 | NL4-3 | EC50 |  | 14.8 µM |
| COc1cccc(F)c1C(=O)c1nc(N(C)C)nc(OC)c1C | MTT | MT-4 | IIIB | EC50 | Y181C | >7.8 µM |
| CCOCn1c(Cc2ccccc2)c(C(C)C)c(=O)[nH]c1=O |  | MT-4 | IIIB | EC50 |  | 0.005 µM |
| CCC1(C)CCN(c2c(-c3ccc(OCCOC(C)(C)C)cn3)cnc(C)c2[C@H](OC(C)(C)C)C(=O)O)CC1 | luminescence | MT-2 | NL4-3 | EC50 |  | 2.1 µM |
| CCN(CC)CCOc1ccc(NC(=O)COc2cc(OC)ccc2C(=O)c2ccccc2)cc1 | p24 | C8166 | RF | EC50 |  | 0.0273 µM |
| CC1(C)C=Cc2c(cc(O)c3c(=O)cc(-c4ccc(O)cc4)oc23)O1 | ELISA | C8166 | IIIB | EC50 |  | 27.9 µM |
| COC(O)c1cnc(Nc2ccc(C#N)cc2)nc1Nc1c(C)cc(/C=C/C#N)cc1C |  | MT-4 | PSI (IIIB) | EC50 |  | 240 µM |
| COc1ccc(N(C)C(=O)[C@H](Cc2cc(F)cc(F)c2)NC(=O)CN2CCN(S(=O)(=O)c3ccc(F)cc3)CC2=O)cc1 | MTT | MT-4 | IIIB | EC50 |  | 0.24 µM |
| Nc1ncnc2c1ncn2OCCOCP(=O)(O)O |  | PBMC |  | EC50 |  | 0.3 µM |
| Cc1cn([C@H]2C[C@H](N=[N+]=[N-])[C@@H](CO)O2)c(=O)[nH]c1=O | MTT | C8166 | IIIB | EC50 |  | 0.00135 µg/mL |
| COCCOC(O)c1cnc(Nc2ccc(C#N)cc2)nc1Nc1c(C)cc(/C=C/C#N)cc1C |  | MT-4 | PSI (IIIB) | EC50 |  | 151 µM |
| CCOCn1c(Cc2ccccc2)c(I)c(=O)[nH]c1=O |  |  |  | EC50 | RT-Y181C | 10 µM |
| COc1cccc(OC)c1C(=O)c1nc(N(C)C)nc(OC)c1C | MTT | MT-4 | IIIB | EC50 | K103N + Y181C | >8 µM |
| O=C(COc1ccc(F)cc1C(=O)c1ccccc1)Nc1ccccc1 | p24 | C8166 | RF | EC50 |  | 0.0171 µM |
| Cc1nc2ccccc2c(-c2cc(F)c3c(c2C)CCCO3)c1[C@H](OC(C)(C)C)C(=O)O | luminescence | MT-4 | NL4-3 | EC50 |  | 0.019 µM |
| Cc1cnc(C(O)c2cnc(Nc3ccc(C#N)cc3)nc2Nc2c(C)cc(/C=C/C#N)cc2C)s1 |  | MT-4 | PSI (IIIB) | EC50 |  | 708 µM |
| COc1ccc(N(C)C(=O)[C@H](Cc2cc(F)cc(F)c2)NC(=O)CN2CCN(S(=O)(=O)c3cccc(NC(C)=O)c3)CC2=O)cc1 | MTT | MT-4 | IIIB | EC50 |  | 0.21 µM |
| Cc1ncc(-c2ccc(OCCOc3ccccc3Cl)cn2)c(N2CCC3(CCCC3)CC2)c1[C@H](OC(C)(C)C)C(=O)O | luminescence | MT-2 | NL4-3 | EC50 |  | 52.5 µM |
| CC1(C)Oc2cc(O)c3c(=O)cc(-c4ccc(O)cc4)oc3c2C(O)C1O | ELISA | C8166 | IIIB | EC50 |  | 8.6 µM |
| COc1cc([C@H]2c3cc(O)c(OC)cc3C[C@H]3COC[C@@H]32)ccc1O | MTT | C8166 | IIIB | EC50 |  | 82 µg/mL |
| CCC1(C)CCN(c2c(-c3ccc(OCCc4ccc(F)cc4)cn3)cnc(C)c2[C@H](OC(C)(C)C)C(=O)O)CC1 | luminescence | MT-2 | NL4-3 | EC50 |  | 0.6 µM |
| CC(C)C1=C2[C@H]3CC[C@@H]4[C@@]5(C)CC[C@H](OC(=O)[C@H]6C[C@@H](C(=O)O)C6(C)C)C(C)(C)[C@@H]5CC[C@@]4(C)[C@]3(C)CC[C@@]2(CCNCC(C)(NC(=O)c2ccc(Cl)cc2)C(C)O)CC1=O | p24 / ELISA | MT-2 | 92HT599 | EC50 |  | <1 µM |
| CC(C)=CCOc1cc(O)c2ccc(=O)oc2c1 | ELISA | C8166 | IIIB | EC50 |  | 18.3 µM |
| COc1cc([C@H]2c3cc(O)c(OC)cc3C[C@@H](COC(C)=O)[C@@H]2COC(C)=O)ccc1O | MTT | C8166 | IIIB | EC50 |  | >200 µg/mL |
| Cc1cc(/C=C/C#N)cc(C)c1Nc1nc(Nc2ccc(C#N)cc2)ncc1C(O)n1ccnc1 |  | MT-4 | PSI (IIIB) | EC50 |  | 501 µM |
| O=C(c1ccccc1)c1cc(Cl)ccc1OCC(=O)N1CCc2ccccc2C1 | syncytia | C8166 | RF | EC50 |  | 0.027 µM |
| COc1ccc(N(C)C(=O)[C@H](Cc2cc(F)cc(F)c2)NC(=O)CN2CCN(S(=O)(=O)c3ccc(N)cc3)CC2=O)cc1 | MTT | MT-4 | IIIB | EC50 |  | 0.12 µM |
| Cc1c(C(C)c2c(F)cccc2F)nc(N(C)C)[nH]c1=O | MTT | C8166 | IIIB | EC50 | EFV-resistant (K103R V179D P225H) | >100 µM |
| COc1cc([C@H]2OC[C@H]3[C@@H]2CO[C@H]3c2ccc(O)c(OC)c2)ccc1O | MTT | C8166 | IIIB | EC50 |  | >200 µg/mL |
| Cc1cn([C@H]2C[C@H](N=[N+]=[N-])[C@@H](CO)O2)c(=O)[nH]c1=O | MTT | MT-4 | IIIB | EC50 | E138K | 0.035 µM |
| CCOC1c2c(cc(O)c3c(=O)cc(-c4ccc(O)cc4)oc23)OC(C)(C)C1O | ELISA | C8166 | IIIB | EC50 |  | 6.7 µM |
| Cc1csc(CC(O)c2cnc(Nc3ccc(C#N)cc3)nc2Nc2c(C)cc(/C=C/C#N)cc2C)n1 |  | MT-4 | PSI (IIIB) | EC50 |  | 437 µM |
| O=c1ccc2ccc3c(c2o1)CCO3 | ELISA | C8166 | IIIB | EC50 |  | 336.3 µM |
| CCOCn1c(Cc2ccccc2)c(C=O)c(=O)[nH]c1=O |  |  |  | EC50 | RT-Y181C | >100 µM |
| CC1=C(C)[C@]2(C)C(C)[C@@]1(C)[C@@H]1C(=O)N(NC(=S)NC3CCCCC3)C(=O)[C@@H]12 | cytopathic effect / MTT | MT-4 | IIIB | EC50 |  | >48 µM |
| Cc1ccc(C(=O)NC(C)(C)CNCC[C@@]23CC[C@]4(C)[C@H](CC[C@@H]5[C@@]6(C)CC[C@H](OC(=O)[C@H]7C[C@@H](C(=O)O)C7(C)C)C(C)(C)[C@@H]6CC[C@]54C)C2=C(C(C)C)C(=O)C3)cc1 | p24 / ELISA | MT-2 | 92HT599 | EC50 |  | <1 µM |
| Cc1c(Cl)nc(N(C)C)nc1C(C#N)c1c(F)cccc1F | MTT | MT-4 | IIIB | EC50 | K103N + Y181C | >34 µM |
| CC(C)C1=C2[C@H]3CC[C@@H]4[C@@]5(C)CC[C@H](OC(=O)[C@H]6C[C@@H](C(=O)O)C6(C)C)C(C)(C)[C@@H]5CC[C@@]4(C)[C@]3(C)CC[C@@]2(CCNCC(C)(C)NC(=O)c2ccncn2)CC1=O | p24 / ELISA | MT-2 | 92HT599 | EC50 |  | <1 µM |
| Nc1ccn([C@@H]2CS[C@H](CO)O2)c(=O)n1 | luciferase | TZM-bl | NL4-3 | EC50 | M184V-R263K | 2.099 µM |
| Cc1cc(/C=C/C#N)cc(C)c1Nc1nc(Nc2ccc(C#N)cc2)ncc1C(O)OCCO |  | MT-4 | MDR | EC50 |  | 269 µM |
| Cc1ncc(-c2ccc(OCC(C)C)cn2)c(N2CCC(C)(c3ccccc3)CC2)c1[C@H](OC(C)(C)C)C(=O)O | luminescence | MT-2 | NL4-3 | EC50 |  | 3.1 µM |
| COc1cc([C@H]2OC[C@H]3[C@@H]2CO[C@@H]3c2ccc(O)c(OC)c2)ccc1O | MTT | C8166 | IIIB | EC50 |  | >200 µg/mL |
| CC(C)C1=C2[C@H]3CC[C@@H]4[C@@]5(C)CC[C@H](OC(=O)[C@H]6C[C@@H](C(=O)O)C6(C)C)C(C)(C)[C@@H]5CC[C@@]4(C)[C@]3(C)CC[C@@]2([C@@H](O)CNC(=O)C(C)(C)NC(=O)c2ccc(Cl)cc2OCCN2CCCC2)CC1=O | p24 / ELISA | MT-2 | 92HT599 | EC50 |  | <1 µM |
| COc1nc(N)nc2c1ncn2OCCOCP(=O)(O)O |  | PBMC |  | EC50 |  | 0.01 µM |
| COc1ccc(N(C)C(=O)[C@H](Cc2cc(F)cc(F)c2)NC(=O)CN2CCN(S(=O)(=O)c3cccc(Br)c3)CC2=O)cc1 | MTT | MT-4 | IIIB | EC50 |  | 0.86 µM |
| CCC(O)c1cnc(Nc2ccc(C#N)cc2)nc1Nc1c(C)cc(/C=C/C#N)cc1C |  | MT-4 | Y181C | EC50 |  | 0.06166 µM |
| Nc1nc(N)c2ncn(OCCOCP(=O)(O)O)c2n1 |  | PBMC |  | EC50 |  | 0.03 µM |
| CCN(CC)CCOc1ccc(NC(=O)COc2ccccc2C(=O)c2ccc(F)cc2)cc1 | syncytia | C8166 | RF | EC50 |  | 0.0275 µM |
| O=C(/C=C/c1ccc(O)c2c1[C@H](C(=O)O[C@H](Cc1ccc(O)c(O)c1)C(=O)O)[C@@H](c1ccc(O)c(O)c1)O2)O[C@H](Cc1ccc(O)c(O)c1)C(=O)O | p24 | H9 | MN | EC50 |  | 6.9 µM |
| CN(C)c1nc(Cl)cc(C(C#N)c2c(F)cccc2F)n1 | MTT | MT-4 | IIIB | EC50 |  | 2 µM |
| CC1(C)CC=C(c2cn(-c3nccc(C(=O)NC4CCC(N5CC6CCC(C5)O6)CC4)n3)c3ccc(F)c([C@H](OC(C)(C)C)C(=O)O)c23)CC1 | luminescence | MT-4 | NL4-3 | EC50 | A129T | 0.0068 µM |
| CC1=C(C)[C@]2(C)C(C)[C@@]1(C)[C@@H]1C(=O)N(NC(=O)Nc3ccccc3)C(=O)[C@@H]12 | cytopathic effect / MTT | MT-4 | IIIB | EC50 |  | >42 µM |
| O=C1C=C(c2ccc(O)cc2)OC2C=C(O)C=C(O)C12 | ELISA | C8166 | IIIB | EC50 |  | 203.3 µM |
| CCCCCCCCCCCCCCCCOC1O[C@@H](CO)[C@H](O)[C@H](O)[C@@H]1O | luciferase | TZM-bl | 89.6 | EC50 |  | 12.79 µM |
| Cc1cn([C@H]2C=C[C@@H](CO)O2)c(=O)[nH]c1=O | cytopathic effect | C8166 |  | EC50 |  | 0.32 µM |
| Cc1ccc(C)n1-c1ccc(C(=O)O)c(O)c1 | p24 | MT-2 | SF2 X4R5 CLADE B | EC90 |  | 5.92 µM |
| CN[C@@H]1[C@H](O[C@@H]2OC[C@@H](O)[C@H](O)[C@H]2O)[C@@H](O)[C@H](O[C@H]2c3cc(C)c(C(=O)N[C@H](C)C(=O)O)c(O)c3-c3c(cc4c(c3O)C(=O)c3cc(OC)cc(O)c3C4=O)[C@@H]2O)O[C@@H]1C | p24 / ELISA | MT-4 | IIIB | EC50 |  | 3.1 µM |
| COc1ccc(NC(=S)NN2C(=O)[C@@H]3[C@H](C2=O)[C@]2(C)C(C)=C(C)[C@@]3(C)C2C)cc1 | cytopathic effect / MTT | MT-4 | IIIB | EC50 |  | >55 µM |
| Cc1ccc(C(=O)NCC[C@@]23CC[C@]4(C)[C@H](CC[C@@H]5[C@@]6(C)CC[C@H](OC(=O)[C@H]7C[C@@H](C(=O)O)C7(C)C)C(C)(C)[C@@H]6CC[C@]54C)C2=C(C(C)C)C(=O)C3)cc1 | p24 / ELISA | MT-2 | 92HT599 | EC50 |  | <1 µM |
| CC1=C[C@@H]2[C@@H]3C(=O)N(N)C(=O)[C@@H]3[C@H]1C[C@@H]2C(C)C | cytopathic effect / MTT | MT-4 | IIIB | EC50 |  | >100 µM |
| COc1ccc(N(C)C(=O)[C@H](Cc2cc(F)cc(F)c2)NC(=O)CN2CCN(S(=O)(=O)c3cccc(C)c3)CC2=O)cc1 | MTT | MT-4 | IIIB | EC50 |  | 0.91 µM |
| Cc1ncc(-c2ccc(OCCc3ccc(F)cc3)cn2)c(N2CCC3(CC2)CC3(F)F)c1[C@H](OC(C)(C)C)C(=O)O | luminescence | MT-2 | NL4-3 | EC50 |  | 1.6 µM |
| CC(=O)NCC[C@@]12CC[C@]3(C)[C@H](CC[C@@H]4[C@@]5(C)CC[C@H](OC(=O)[C@H]6C[C@@H](C(=O)O)C6(C)C)C(C)(C)[C@@H]5CC[C@]43C)C1=C(C(C)C)C(=O)C2 | p24 / ELISA | MT-2 | 92HT599 | EC50 |  | <1 µM |
| COc1cc(C(C#N)c2c(F)cccc2F)nc(N(C)C)n1 | MTT | C8166 | IIIB | EC50 | EFV-resistant (K103R V179D P225H) | >40 µM |
| Cc1ncc(-c2ccc(OCCc3ccc(F)cc3)cn2)c(N2CCC3(CCCCC3)C2)c1[C@H](OC(C)(C)C)C(=O)O | luminescence | MT-2 | NL4-3 | EC50 |  | 3.8 µM |
| CC1=C(C)[C@]2(C)C(C)[C@@]1(C)[C@@H]1C(=O)N(NC(=O)NC3CCCCC3)C(=O)[C@@H]12 | cytopathic effect / MTT | MT-4 | IIIB | EC50 |  | >12 µM |

The first 10 rows once more:

smiles	method	cell line	strain	endpoint	changes	result
COC1(C)CCN(c2c(-c3ccc(OCC(C)C)cn3)cnc(C)c2[C@H](OC(C)(C)C)C(=O)O)CC1	luminescence	MT-2	NL4-3	EC50		14.8 µM
COc1cccc(F)c1C(=O)c1nc(N(C)C)nc(OC)c1C	MTT	MT-4	IIIB	EC50	Y181C	>7.8 µM
CCOCn1c(Cc2ccccc2)c(C(C)C)c(=O)[nH]c1=O		MT-4	IIIB	EC50		0.005 µM
CCC1(C)CCN(c2c(-c3ccc(OCCOC(C)(C)C)cn3)cnc(C)c2[C@H](OC(C)(C)C)C(=O)O)CC1	luminescence	MT-2	NL4-3	EC50		2.1 µM
CCN(CC)CCOc1ccc(NC(=O)COc2cc(OC)ccc2C(=O)c2ccccc2)cc1	p24	C8166	RF	EC50		0.0273 µM
CC1(C)C=Cc2c(cc(O)c3c(=O)cc(-c4ccc(O)cc4)oc23)O1	ELISA	C8166	IIIB	EC50		27.9 µM
COC(O)c1cnc(Nc2ccc(C#N)cc2)nc1Nc1c(C)cc(/C=C/C#N)cc1C		MT-4	PSI (IIIB)	EC50		240 µM
COc1ccc(N(C)C(=O)[C@H](Cc2cc(F)cc(F)c2)NC(=O)CN2CCN(S(=O)(=O)c3ccc(F)cc3)CC2=O)cc1	MTT	MT-4	IIIB	EC50		0.24 µM
Nc1ncnc2c1ncn2OCCOCP(=O)(O)O		PBMC		EC50		0.3 µM
Cc1cn([C@H]2C[C@H](N=[N+]=[N-])[C@@H](CO)O2)c(=O)[nH]c1=O	MTT	C8166	IIIB	EC50		0.00135 µg/mL

ECn: concentration that inhibits the pathogen or its effect by n%. Conditions beyond the fields shown may differ between rows.